Results: patent publication US8318697B2, “Prophylactic and therapeutic treatment of infectious and other diseases with mono- and disaccharide-based compounds” (Corixa Corporation, priority 2000, dated 2012)

Test system: influenza A/HK/68
Assay: Lethal influenza challenge model, intranasal monotherapy
Conditions: 20 μg i.n. […] challenge, ~2 LD50; FIG. 3

SMILES	protection against influenza challenge (disease index, weight loss, mortality)
CCCCCCCCCCC[C@H](CC(=O)N[C@H]1[C@H](OC[C@H](NC(=O)C[C@@H](CCCCCCCCCCC)OC(=O)CCCCCCCCCC)C(=O)O)O[C@H](CO)[C@@H](OP(=O)(O)O)[C@@H]1OC(=O)C[C@@H](CCCCCCCCCCC)OC(=O)CCCCCCCCCC)OC(=O)CCCCCCCCCC.CCN(CC)CC [RC-538]	substantial protection against influenza challenge
CCCCCCCCCCCCCC(=O)O[C@H](CCCCCCCCCCC)CC(=O)N[C@H]1[C@H](OC[C@H](NC(=O)C[C@@H](CCCCCCCCCCC)OC(=O)CCCCCCCCCCCCC)C(=O)O)O[C@H](CO)[C@@H](OP(=O)(O)O)[C@@H]1OC(=O)C[C@@H](CCCCCCCCCCC)OC(=O)CCCCCCCCCCCCC.CCN(CC)CC [RC-512]	substantial protection against influenza challenge
CCCCCCCCCCCC(=O)O[C@H](CCCCCCCCCCC)CC(=O)N[C@H]1[C@H](OC[C@H](NC(=O)C[C@@H](CCCCCCCCCCC)OC(=O)CCCCCCCCCCC)C(=O)O)O[C@H](CO)[C@@H](OP(=O)(O)O)[C@@H]1OC(=O)C[C@@H](CCCCCCCCCCC)OC(=O)CCCCCCCCCCC.CCN(CC)CC [RC-560]	substantial protection against influenza challenge
